Laboratory results: publication PMC2217675, “Quantitative High-Throughput Screen Identifies Inhibitors of the Schistosoma mansoni Redox Cascade” (PLoS Neglected Tropical Diseases, 2008)
Where two headings read alike, the source gives them in different places.

Amino acid sequences for entries named in this document (tags omitted). Residues count along the entry.
UniProt Q962Y6, 1-598: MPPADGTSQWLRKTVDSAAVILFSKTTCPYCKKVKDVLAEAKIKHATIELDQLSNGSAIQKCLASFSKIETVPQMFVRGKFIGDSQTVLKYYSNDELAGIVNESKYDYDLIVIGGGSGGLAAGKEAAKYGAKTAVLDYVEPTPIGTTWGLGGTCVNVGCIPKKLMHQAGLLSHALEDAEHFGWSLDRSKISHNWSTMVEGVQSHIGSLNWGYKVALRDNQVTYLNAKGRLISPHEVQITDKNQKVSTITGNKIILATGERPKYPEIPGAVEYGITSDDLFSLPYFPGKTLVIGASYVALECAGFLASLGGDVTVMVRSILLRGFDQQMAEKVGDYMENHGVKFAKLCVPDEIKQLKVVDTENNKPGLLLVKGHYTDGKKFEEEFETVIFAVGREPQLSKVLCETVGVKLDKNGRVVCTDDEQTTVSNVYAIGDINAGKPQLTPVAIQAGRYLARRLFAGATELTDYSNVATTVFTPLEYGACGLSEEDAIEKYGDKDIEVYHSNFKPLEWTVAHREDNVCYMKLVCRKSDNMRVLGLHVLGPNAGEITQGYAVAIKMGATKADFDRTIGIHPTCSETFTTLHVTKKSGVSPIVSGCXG

What was measured:
S. mansoni TGR/Prx2 [1] = target: T1, S. mansoni TGR/Prx2 (Schistosoma mansoni, UniProt Q962Y6); experiment: Confirmation: screening TGR/Prx2 assay on powder samples, 24-point titration; format: biochemical
S. mansoni TGR/Prx2 [2] = target: T1, S. mansoni TGR/Prx2; conditions: for IC50: read-out: qHTS IC50
TGR = TGR (Schistosoma mansoni, UniProt Q962Y6); experiment: TGR activity assay with DTNB as substrate; format: biochemical; conditions: read-out: TGR Assay IC50, 15 nM TGR
[3] = read-out: IC50 on re-test (confirmation), powder samples, values in text
[4] = read-out: Confirmation IC50, identical assay as in the qHTS, independently acquired powder samples

O=P(Nc1nccs1)(c1ccccc1)c1nc2ccccc2s1 (stereo not shown)
IC50 (S. mansoni TGR/Prx2 [1]; [3]): 25 nM
IC50 (S. mansoni TGR/Prx2 [2]; primary screen, values in text): 37 nM
IC50 (TGR): 25 nM

O=P(Nc1ccc(Cl)cn1)(c1ccccc1)c1nc2ccccc2s1 (stereo not shown)
IC50 (S. mansoni TGR/Prx2 [1]; [4]): 250 nM
IC50 (S. mansoni TGR/Prx2 [1]; [3]): 247 nM
IC50 (TGR): 800 nM

O=P(Nc1nccs1)(c1ccccc1)c1ccccc1
IC50 (S. mansoni TGR/Prx2 [1]; [4]): > 57000 nM
activity in qHTS (S. mansoni TGR/Prx2 [2]; primary screen): inactive
IC50 (S. mansoni TGR/Prx2 [2]; initial high throughput screen of the collection, 25 nM TGR, 50 nM Prx2): > 57000 nM
IC50 (TGR): > 50000 nM
